Biological target: α9α10 subtype of the nicotinic acetylcholine receptor (nAChR) (rat) (UniProt P43144)
Assay: cell-based or functional assay

Row | Substance | IC50 (activity on α9α10 nAChR, oocytes as in Example 1) [nM]
1 | α-conotoxin ArIB [V11L;V16A] (peptide) | > 10000
2 | α-conotoxin PeIA (peptide) | 20

From patent US20090203616A1
